PMC7503848 (International Journal of Molecular Sciences, 2020)

Columns and labels:
[1] = system: myosin A tail; test: Isothermal titration calorimetry, myosin A tail into ZA1; format: binding, Plasmodium falciparum; details: ITC200, 25 °C, phosphate buffer
Description: ITC experiments were performed using ITC200 Microcalorimeter (Malvern, UK) at 25 °C in phosphate buffer. The cell and syringe volumes were kept 310 µL and 40 µL, respectively. The syringe was loaded with 100 µM MyoA tail for MyoA/MTIP interaction study and 150 µM for MyoA/ZA1 interaction. The sample cell was loaded with 10 µM each of MTIP and ZA1. MTIP and ZA1 were titrated using MyoA tail in injections of 2 µL each except for the first injection that was 0.4 µL. In between each titration, a 150-s interval for stirring was kept to ensure that the signal returns to baseline. Throughout the experiment, constant stirring at 300 rpm was maintained to ensure proper mixing of reaction components. For both experiments, a corresponding buffer control was also set up in which PBS was taken in the syringe. The enthalpy changes of titrations were measured, and the baseline values were subtracted from the test samples. The data analysis was carried out using Origin software and curve-fitted to obtain stoichiometry (N), dissociation constant (Kd), and enthalpy change (ƍH).

[2] = system: myosin A-MTIP complex; test: Competitive ITC, pre-bound myosin A-MTIP complex into ZA1; format: binding, Plasmodium falciparum
Description: For the competitive ITC experiment, a pre-bound complex of MyoA-MTIP in an equal molar ratio (150 µM each) was taken in the syringe. The complex was used to titrate ZA1 (10 µM) present in the cell. As a control, the pre-bound MyoA-MTIP complex was titrated in buffer only. All parameters were kept identical to the one-on-one ITC experiment. Origin software was used for data analysis and for calculating binding parameters like stoichiometry (N), binding constant (Kd), and enthalpy change (ƍH).

[3] = 25 °C, pre-bound myosin A-MTIP complex into ZA1

SGRHVFKQLDIDIDIMHELDIELELDIDIDIMHPGDIDIDIDIDIQLDIELDIMHDIDIDIMHMHQLELELDIFKHVAAA [ZA1]
TΔS [1]: +10.66 kcal/mol | ΔG [1]: -8.37 kcal/mol | ΔH [1]: +2.29 kcal/mol | TΔS [2, 3]: 65.85 kcal/mol | ΔG [2, 3]: -5.72 kcal/mol | ΔH [2, 3]: 60.13 kcal/mol | Decrease in binding strength (MTIP-bound versus free myosin A) ([2]; Kd of myosin A-MTIP complex/ZA1 compared with free myosin A/ZA1): 80 times
